# Laboratory results reported in publication PMC5823870 (Scientific Reports, 2018).
# Tested on: N[C@@H](CCC(=O)N[C@@H](CSS)C(=O)NCC(=O)O)C(=O)O
# Assay: purified protein
# Conditions: 100 mM potassium phosphate pH 7.4, 25 °C, 1 mM GSH, GSSH 0 to 1.2 mM made in situ from GSH and acetonic sulfur, O2 co-substrate
substance,measurement,value
Blh ETHE1 domain (SDO domain) (Xylella fastidiosa 9a5c),Km,180 µM
